Anti-infective test results gathered from many reports (values: NIAID ChemDB through PubChem).

Shared fields: growth or infection tests

Zone: diameter of growth inhibition.

compound	cell line	strain	endpoint	method	dose	changes	agent	result
c1cc(N2CCN(c3ccc(C4OCCO4)cc3)CC2)ccc1C1OCCO1	A549		EC50				Pneumocystis carinii	>100 µg/mL
Nc1ncnc2c1ncn2CCOCP(=O)(O)O		TYPE 4	MIC				Adenovirus	>100 µg/mL
Nc1ncnc2c1ncn2[C@@H]1C=C(CO)[C@@H](O)[C@H]1O	VERO	TRVL 11573	EC50	cytopathic effect			Tacaribe virus	0.3 µg/mL
C1CCC([C@H]2CN=C3N2C[C@@H](C2CCCCC2)N3CCC23CC4CC(CC(C4)C2)C3)CC1		ATCC 32045	EC50				Cryptococcus neoformans	2.5 µg/mL
Nc1nc(N)c2ncn(CCOCP(=O)(O)O)c2n1			MIC				Varicella zoster virus	2 µg/mL
Cc1ccc(N2NOC(=O)C2S(=O)(=O)Nc2ccc(-n3c(-c4ccc(Cl)cc4)nc4ccccc4c3=O)cc2)cc1		MTCC323	zone	agar diffusion	250 µg/mL		Aspergillus clavatus	25 mm
CC(C)(C)C1CCC(CN2C3=NC[C@H](C4CCCCC4)N3C[C@H]2C2CCCCC2)CC1		ATCC 32045	EC50				Cryptococcus neoformans	4.5 µg/mL
N=C(N)c1ccc(NC(=O)CCCC(=O)Nc2ccc(C(=N)N)cc2)cc1	A549		EC50				Pneumocystis carinii	0.0013 µg/mL
Cc1ccc(N2NOC(=O)C2S(=O)(=O)Nc2nc(-c3c(F)cc(Cl)cc3Cl)cs2)cc1		MTCC323	zone	agar diffusion	250 µg/mL		Aspergillus clavatus	17 mm
COC(=O)[C@H]1[C@@H]2C[C@@H](O[C@@H]3O[C@H](C)[C@@H](O)[C@H](N)[C@@H]3O)/C=C/C=C/C=C/C=C/C=C/C=C/C=C/[C@H](C)[C@@H](O)[C@H](C)[C@H](C)OC(=O)C[C@H](O)C[C@H](O)[C@@H](O)CC[C@H](O)C[C@H](O)C[C@](O)(C[C@@H]1O)O2	T98G		inhibition	plaque count	10 µg/mL		Vesicular stomatitis virus	0%
c1cc(CN2CCCNCCNCCCNCC2)ccc1CN1CCCNCCNCCCNCC1	PBMC	SW30 CLADE C R5X4	inhibition	p24	0.1 µM		HIV-1	3%
CC(C)C[C@@H]1CN2C(=NC[C@H]2C2CCCCC2)N1CCC12CC3CC(CC(C3)C1)C2		ATCC 32045	EC50				Cryptococcus neoformans	9.1 µg/mL
OC1c2ccccc2C=Cc2ccccc21	HELA-H1	TYPE 16	inhibition	plaque count	20 µM		Rhinovirus	50%
COc1ccc2c(O[C@@H]3C[C@H]4C(=O)N[C@]5(C(=O)O)C[C@H]5/C=C\CCCCC[C@H](NC(=O)OC5CCCC5)C(=O)N4C3)cc(-c3csc(NC(C)C)n3)nc2c1	1C	Con1	fold resistance	luciferase		A156T	Hepatitis C virus	>410
CCCCCCCCCN1C[C@H](O)[C@@H](O)[C@H](O)[C@H]1CO	MDBK		EC50	cytopathic effect			Bovine viral diarrhea virus	>100 µM
CC#Cc1ccc(-c2cccs2)s1	3T3-L1		EC50	plaque count			Mouse cytomegalovirus	0.5 µg/mL
Cc1c(N2CCC(N)CC2)c(F)cn2c(=O)c(C(=O)O)cc(C3CC3)c12		ATCC 8043	MIC				Enterococcus faecium	0.2 µg/mL
OCCC#Cc1ccc(-c2ccccc2)s1	3T3-L1		EC50	plaque count			Mouse cytomegalovirus	0.312 µg/mL
CCOC(=O)c1ccc(N2CCN(c3ccc(C(=O)OCC)cc3)CC2)cc1	A549		EC50				Pneumocystis carinii	>100 µg/mL
CC#Cc1ccc(-c2ccc(C(=O)O)s2)s1	3T3-L1		EC50	plaque count			Mouse cytomegalovirus	0.055 µg/mL
C[C@H]1[C@H](O)[C@@H](C)/C=C/C=C/C=C/C=C/C=C/C=C/C=C/[C@H](O[C@@H]2O[C@H](C)[C@@H](O)[C@H](N)[C@@H]2O)C[C@@H]2O[C@](O)(C[C@@H](O)C[C@@H](O)CC[C@H](O)[C@@H](O)C[C@@H](O)CC(=O)O[C@H]1C)C[C@H](O)[C@H]2C(=O)O		60 isolates	Geometric mean MIC				Aspergillus fumigatus	0.4 µg/mL
COc1ccc(-c2oc3c(CC=C(C)C)c(OC4O[C@H](CO)[C@@H](O)[C@H](O)[C@H]4O)cc(O)c3c(=O)c2O[C@@H]2O[C@@H](C)[C@H](O)[C@@H](O)[C@H]2O)cc1	PBMC	MAC251	EC50	PCR			SIV	7.314 µM
C=CC(=O)Nc1cc(C(C)(C)C)c(O)c(C(C)(C)C)c1	BC3		EC50	GFP / microscopy			Kaposi sarcoma virus	0.5 µM
C1CCC(C[C@@H]2CN=C3N2C[C@H](C2CCCCC2)N3CCC23CC4CC(CC(C4)C2)C3)CC1		ATCC 32045	EC50				Cryptococcus neoformans	2.1 µg/mL
NC(=O)c1ncn([C@@H]2O[C@H](CO)[C@@H](O)[C@H]2O)c1O	MDBK		EC50	cytopathic effect			Bovine viral diarrhea virus	5.3 µM
CC(C)OC(=O)[C@H](C)N[P@](=O)(OC[C@H]1O[C@@](C#N)(c2ccc3c(N)ncnn23)[C@](C)(O)[C@@H]1OC(=O)C(C)C)Oc1ccccc1	1C	1b Con1	fold resistance	luciferase		Y448H Y452H	Hepatitis C virus	0.8
CC(C)CCCCCCCCCCCCC(=O)NCC(=O)NC1C(C)OC(Nc2ncnc3nc[nH]c23)C(O)C1O	BC3		EC50	GFP / microscopy			Kaposi sarcoma virus	<0.05 µM
Cc1c(N2CCC(C(C)N)C2)c(F)cn2c(=O)c(C(=O)O)cc(C3CC3)c12		ATCC 8043	MIC				Enterococcus faecium	0.02 µg/mL
Cc1ccc(N2NOC(=O)C2S(=O)(=O)Nc2nc(-c3ccc(Cl)cc3)cs2)cc1		MTCC323	MIC	broth dilution			Aspergillus clavatus	500 µg/mL
Cc1cn([C@H]2O[C@@H](CO)[C@H](O)[C@H]2F)c(=O)[nH]c1=O	LMH	WILD TYPE	EC50				Duck hepatitis B virus	>100 µM
C=CC(C)(C)C1=Cc2cc3c(cc2OC1=C)OC(C(C)(C)OC(C)=O)C3	P3HR-1		EC50	PCR			Epstein-Barr virus	5.43 µM
NC12CC3CC(CC(C3)C1)C2	MDBK		EC50	cytopathic effect			Bovine viral diarrhea virus	125 µM
C#CC[C@@H](C(=O)N[C@H](/C=C/C(=O)OCC)C[C@@H]1CCNC1=O)n1cccc(NC(=O)c2cc(C)on2)c1=O	H1-HELA	Serotype 28	inhibition	cytopathic effect / XTT	0.335 µM		Rhinovirus	90%
COc1cc2oc(=O)ccc2cc1CC(O)C(C)(C)O			zone	agar diffusion	250 µg/disc		Staphylococcus epidermidis	16 mm
O=[N+]([O-])c1ccc(N2CCN(c3ccc([N+](=O)[O-])cc3)CC2)cc1	A549		EC50				Pneumocystis carinii	34.1 µg/mL
O=C1N(Cc2ccc(CO)cc2)[C@H](Cc2ccccc2)[C@H](O)[C@@H](O)[C@@H](Cc2ccccc2)N1Cc1ccc(CO)cc1	PBMC	PB clinical isolate	inhibition	p24	0.13 µM		HIV-1	90%
NC(=O)c1ncn([C@@H]2O[C@H](CO)[C@@H](O)[C@H]2O)n1	HEP-2	LONG	inhibition	plaque count	3.2 µg/mL		Respiratory syncytial virus	70%
c1cc(-c2cscc2-c2ccsc2)cs1	3T3-L1		EC50	plaque count			Mouse cytomegalovirus	>1 µg/mL
Cc1ccc(N2NOC(=O)C2S(=O)(=O)Nc2ccc(-n3c(-c4ccccc4)nc4ccccc4c3=O)cc2)cc1		MTCC323	MIC	broth dilution			Aspergillus clavatus	250 µg/mL
Nc1nccc2c1ncn2[C@@H]1C=C(CO)[C@@H](O)[C@H]1O	VERO	TRVL 11573	EC50	cytopathic effect			Tacaribe virus	1.5 µg/mL
c1cc(-c2csc(-c3ccsc3)c2)cs1	3T3-L1		EC50	plaque count			Mouse cytomegalovirus	>1 µg/mL
CCC(CCC(C)C1CCC2C3C[C@@H](O)[C@@]4(O)C[C@@H](O)CCC4(C)C3CCC12C)C(C)C	HepG2 2.2.15		inhibition	antigen	25 µg/mL		Hepatitis B virus	34.3%
NC(=O)c1ncn([C@@H]2O[C@H](CO)[C@@H](O)[C@H]2O)n1	VERO	TRVL 11573	EC50	cytopathic effect			Tacaribe virus	1.2 µg/mL
Nc1nc(N)c2ncn([C@H]3CO[C@@H](CO)O3)c2n1	Huh7	WILD TYPE	EC50				Duck hepatitis B virus	>100 µM
O=Cc1ccc(N2CCN(c3ccc(C=O)cc3)CC2)cc1	A549		EC50				Pneumocystis carinii	>100 µg/mL
OCCC#Cc1ccc(-c2cccs2)s1	3T3-L1		EC50	plaque count			Mouse cytomegalovirus	0.021 µg/mL
Cc1c(N2C[C@@H](N)[C@H](C3CC3)C2)c(F)cn2c(=O)c(C(=O)O)cc(C3CC3)c12		ATCC 8043	MIC				Enterococcus faecium	0.05 µg/mL
C#C[C@]1(CO)O[C@@H](n2cnc3c(N)nc(F)nc32)CC1O	MAGIC-5A	ROD9	fold resistance	β-galactosidase / absorbance		Q151M M184V	HIV-2	14
C(#Cc1ccc(-c2cccs2)s1)c1ccccc1	3T3-L1		EC50	plaque count			Mouse cytomegalovirus	0.004 µg/mL
Nc1ncnc2c1ncn2C[C@H](O)CO	VERO	TRVL 11573	EC50	cytopathic effect			Tacaribe virus	15 µg/mL
C[C@H]1NCc2cc(-c3ccc4c(=O)c(C(=O)O)cn(C5CC5)c4c3OC(F)F)ccc21		35 strains	MIC90				Haemophilus influenzae	0.03 µg/mL
[Cl][Cd][Cl]	BC3		EC50	GFP / microscopy			Kaposi sarcoma virus	0.5 µM
Cc1c(N2C[C@@H](N)[C@@H](C3CC3)C2)c(F)cn2c(=O)c(C(=O)O)cc(C3CC3)c12		ATCC 8043	MIC				Enterococcus faecium	0.05 µg/mL
c1ccc2c(c1)oc1ccccc12	HELA-H1	TYPE 16	EC50	cytopathic effect			Rhinovirus	>200 µM
Nc1ccn([C@@H]2CS[C@H](CO)O2)c(=O)n1	Huh7	WILD TYPE	EC50				Duck hepatitis B virus	3.1 µM
CCC[C@H](NC(=O)[C@@H]1[C@H]2CCC[C@H]2CN1C(=O)[C@@H](NC(=O)[C@@H](NC(=O)c1cnccn1)C1CCCCC1)C(C)(C)C)C(=O)C(=O)NC1CC1	Huh7.5	JCH4	EC50	antigen			Hepatitis C virus	0.778 µM
COc1ccc(-c2csc(NS(=O)(=O)C3C(=O)ONN3c3ccc(C)cc3)n2)cc1		MTCC323	zone	agar diffusion	250 µg/mL		Aspergillus clavatus	21 mm
O=c1cnn([C@@H]2O[C@H](CO)[C@@H](O)[C@H]2O)c(=O)[nH]1	VERO	Type 1 (Hawaii)	EC50	cytopathic effect			Dengue virus	0.5 µg/mL
NNC(=O)c1ccc(N2CCN(c3ccc(C(=O)NN)cc3)CC2)cc1	A549		EC50				Pneumocystis carinii	6.02 µg/mL
Nc1ccn([C@@H]2C=C(CO)[C@@H](O)[C@@H]2O)c(=O)n1	VERO	TRVL 11573	EC50	cytopathic effect			Tacaribe virus	0.03 µg/mL
Cc1ccc(N2NOC(=O)C2S(=O)(=O)Nc2ccc(-n3c(-c4c(Cl)cccc4[N+](=O)[O-])nc4ccccc4c3=O)cc2)cc1		MTCC323	zone	agar diffusion	250 µg/mL		Aspergillus clavatus	23 mm
CN(C)C(=O)/N=N/C(=O)N(C)C	VERO		EC50	cytopathic effect			Tacaribe virus	>100 µM
Oc1ccc2oc3ccccc3c2c1	HELA-H1	TYPE 14	EC50	cytopathic effect			Rhinovirus	70 µM
COc1ccc2c(O[C@@H]3C[C@H]4C(=O)N[C@]5(C(=O)NS(=O)(=O)C6CC6)C[C@H]5/C=C\CCCCN(C)C(=O)[C@@H]4C3)cc(-c3nc(C(C)C)cs3)nc2c1C	Huh7.5	452	EC50	antigen			Hepatitis C virus	2.599 µM
Cc1ccc2ccc3ccc(C)nc3c2n1	BC3		EC50	GFP / microscopy			Kaposi sarcoma virus	<0.05 µM
Cc1c(N2C[C@@H]3CCCN[C@@H]3C2)c(F)cn2c(=O)c(C(=O)O)cc(C3CC3)c12		ATCC 8043	MIC				Enterococcus faecium	0.2 µg/mL
CC1=C2C(=CC(C)(C)[C@@H]2O)C(=O)[C@](C)(O)C12CC2	BC3		EC50	GFP / microscopy			Kaposi sarcoma virus	<0.05 µM
Cc1ccc(N2NOC(=O)C2S(=O)(=O)Nc2ccc(-n3c(-c4cccc([N+](=O)[O-])c4)nc4ccccc4c3=O)cc2)cc1		MTCC323	MIC	broth dilution			Aspergillus clavatus	250 µg/mL
Cc1c(N2CCC(N(C)C)C2)c(F)cn2c(=O)c(C(=O)O)cc(C3CC3)c12		ATCC 8043	MIC				Enterococcus faecium	0.2 µg/mL
CCCCN1C[C@H](O)[C@@H](O)[C@H](O)[C@H]1CO	MDBK		EC50	plaque count			Bovine viral diarrhea virus	>250 µM
CCOC(=O)c1ccc(-c2ccc(I)s2)s1	3T3-L1		EC50	plaque count			Mouse cytomegalovirus	0.062 µg/mL
CN[C@@H]1CN(c2c(F)cn3c(=O)c(C(=O)O)cc(C4CC4)c3c2C)CC12CC2		ATCC 8043	MIC				Enterococcus faecium	0.2 µg/mL

MIC50, MIC90 and the like: level of inhibition, or share of isolates inhibited. ECn: concentration that inhibits the pathogen or its effect by n%. Percent inhibition refers to the dose given; in toxicity tests it is the harm to the cells. Blank or dashed fields: not listed here. Fold resistance: result on the changed form divided by that on wild type. Lines come from different laboratories, so protocols vary.